PubChem BioAssay AID1259414, Drosophila RNAi Screening Center – 2018
The screen tested about 24,000 reagents; shown is a random part of those that have a named target and a result. In the full data, about 1,210 (5%) were called active. 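Inactive calls also include excluded dsRNAs with several or no targets, genes unexpressed in JW18, and well A1, regardless of score.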 Entries without a mark were called inactive. Names joined by + are all predicted targets of the reagent.

- Assay: 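Fly genes that alter Wolbachia amount inside host cells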 (primary screen)
- Cells: Drosophila JW18 cells infected with Wolbachia
- Reagent: long dsRNA against Drosophila genes, 0.25 µg dsRNA per well of a 384-well plate
- Duration: 5 days
- Treatment: cells persistently infected with Wolbachia before knock-down; no added drug
- Read-out: 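Imaged fluorescence in situ signal for Wolbachia 23S rRNA per DAPI-counted host cell, given as a robust z-score within each plate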
- Reading the numbers: Wolbachia per cell robust z: higher = more Wolbachia per host cell than the plate typical
- Active means: 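Active if absolute robust z reaches 1.5 in two or more of three replicates, leaving out multi- or no-target dsRNAs, genes unexpressed in JW18 and A1 wells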

no.	gene	DRSC id	Wolbachia per cell robust z, rep 1	Wolbachia per cell robust z, rep 2	Wolbachia per cell robust z, rep 3
1	Crz	DRSC16615	0.493	-3.25	1.09
2	CG9568	DRSC03265	-0.798	-0.878	-1.93
3	TTLL1A	DRSC20121	-3.11	-1.28	1.57
4	EMRE	DRSC06686	-0.0456	-0.283	-1.94
5	nec	DRSC06769	-0.0943	-0.727	-0.194
6	nec	DRSC40840	0.714	0.414	0.39
7	Opbp	DRSC04966	-0.199	0.869	1.31
8	Opbp	DRSC28850	0.985	-0.689	-0.607
9	CG15475	DRSC02486	0.293	-0.292	0.827
10	CG15475	DRSC30114	1.25	1.32	1.08
11	Noc3	DRSC12535	-0.232	0.71	0.281
12	CG11983	DRSC14458	0.33	0.542	0.414
13	Cdc2rk	DRSC07590	0.614	-0.0779	0.745
14	Cdc2rk	DRSC29758	-0.806	-0.711	0.159
15	CG14543	DRSC14887	0.557	-1.36	0.457
16	CG14543	DRSC26647	1.2	1.33	2.5
17	Jon99Fii + Jon99Ciii + Jon99Fi + 1 more	DRSC29104	0.461	1.63	0.41
18	tal-2A + tal-AA + tal-3A + 1 more	DRSC12992	0.999	0.785	0.706
19	lncRNA:CR41443	DRSC38747	0.827	1.58	1.83
20	CalpA	DRSC07352	0.0351	1.06	0.29
21	Pkcdelta	DRSC19356	0.678	0.65	0.318
22	Pkcdelta	DRSC19399	-0.453	0.309	-0.0513
23	Pkcdelta	DRSC27039	-0.58	0.941	1.71
24	Alg1	DRSC15297	0.0759	-0.0646	-0.175
25	Alg1	DRSC29409	-1.05	0.441	-8.48
26	CR11023	DRSC00302	0.287	0.801	-0.702
27	CR11023	DRSC28266	1.91	0.459	0.782
28	DCTN5-p25	DRSC03525	-1.63	-0.204	1.25
29	DCTN5-p25	DRSC26867	-0.996	-0.283	0.229
30	Mcm7	DRSC11219	0.304	0.184	1.16
31	Mcm7	DRSC24311	1.4	-0.00248	0.721
32	Rad9	DRSC11263	0.0378	0.46	0.903
33	loh	DRSC01122	-1.98 (active)	-1.36	-8.21
34	loh	DRSC02943	-0.51	0.974	-1.31
35	Ugt37D1	DRSC02645	-1.18	-1.49	-0.71
36	Ugt37D1	DRSC23980	-1.61 (active)	-2.85	0.157
37	Neos	DRSC11235	0.486	-0.265	-2
38	Lcp1Psi	DRSC05105	1.15	-5.65	2.05
39	Lcp1Psi	DRSC28465	0.0715	0.866	0.196
40	mRpS17	DRSC04463	-0.106	1.16	1.15
41	lwr	DRSC00828	-0.347	1.01	2.01
42	lwr	DRSC27034	0.676	-1.32	0.763
43	CG3793	DRSC01982	-0.644 (active)	-3.21	-1.53
44	CG6403	DRSC16033	-4.04	-1.8	0.683
45	mt:Cyt-b	DRSC40590	0.676	1.04	0.538
46	Osi4	DRSC12134	0.184	0.298	0.275
47	Nulp1	DRSC09677	0.384	-0.918	0.932
48	bc10	DRSC11326	-3.8	0.492	-0.5
49	CG16964	DRSC02546	0.451	-6.19	-5.31
50	CG16964	DRSC26799	-8.26	0.0455	-1.91

Continued, starting with the last 7 of the part before.
no.	gene	DRSC id	Wolbachia per cell robust z, rep 1	Wolbachia per cell robust z, rep 2	Wolbachia per cell robust z, rep 3
44	CG6403	DRSC16033	-4.04	-1.8	0.683
45	mt:Cyt-b	DRSC40590	0.676	1.04	0.538
46	Osi4	DRSC12134	0.184	0.298	0.275
47	Nulp1	DRSC09677	0.384	-0.918	0.932
48	bc10	DRSC11326	-3.8	0.492	-0.5
49	CG16964	DRSC02546	0.451	-6.19	-5.31
50	CG16964	DRSC26799	-8.26	0.0455	-1.91
51	CG12517	DRSC02173	0.841	0.475	1.24
52	row	DRSC07076	0.625	0.732	0.758
53	row	DRSC07077	-1.21	0.0764	0.285
54	Idh	DRSC10779	0.141	1.03	1.14
55	Rnb	DRSC16325	0.681	1.54	0.735
56	Rnb	DRSC28764	-1.12	-0.601	-0.0953
57	MED10	DRSC10474	0.358	-1.11	0.489
58	CG11426	DRSC11658	-0.185	0.477	0.445
59	CG11426	DRSC27815	-0.26	1.15	1.69
60	Nopp140	DRSC11872	-1.02	-0.775	-0.497
61	Nopp140	DRSC24599	-0.184	1.94	1.36
62	Nopp140	DRSC39061	0.705	-0.128	-5.16
63	CG32945	DRSC12014	-0.447	-0.923	-0.862
64	CG11854	DRSC14409	-0.0383	-0.0265	0.343
65	CG7457	DRSC10849	-0.927	0.253	0.348
66	CG7457	DRSC27107	-3.32	-5.78	-3.45
67	CG43077	DRSC40519	0.717	-1.34	0.479
68	CG17048	DRSC06649	-0.668	-6.02	0.669
69	aop	DRSC22999	0.136 (active)	-2.3	-1.77
70	aop	DRSC25805	0.147	0.435	1.3
71	aop	DRSC39162	0.277	-0.0519	0.988
72	CG32246	DRSC08115	-0.0474	0.304	0.255
73	CG32246	DRSC24361	-0.0448	0.0938	0.821
74	ND-75	DRSC18686	1.14	-0.44	0.316
75	Ir51b	DRSC05540	0.405	2.74	1.05
76	TwdlM	DRSC15810	-1.55	0.718	-1.11
77	CG7611	DRSC11840	-1.21	0.0928	0.723
78	CG13603	DRSC14606	-0.126	-0.0876	1.19
79	RhoGAP1A	DRSC20649	-0.257	-0.905	-0.796
80	RhoGAP1A	DRSC20651	0.0948	-1.2	-0.275
81	CG7889	DRSC20066	-0.105	0.514	-0.27
82	CG7889	DRSC26654	0.0651	-0.437	-3.57
83	TTLL3A	DRSC02143	1.12	0.178	1.25
84	TTLL3A	DRSC28462	-0.634	-0.213	-1.19
85	CG9590	DRSC16506	0.044	0.612	0.528
86	CG11927	DRSC00337	1.07	1.15	-1.12
87	BBS8	DRSC00360	-0.308	-0.17	-0.609
88	BBS8	DRSC27758	-0.142	-0.788	-11.9
